Measured values from several laboratories, pooled; numbers as filed in NIAID ChemDB.

All rows: whole-cell or culture tests; organism: Plasmodium falciparum

ECn is the concentration giving n% inhibition of infection, replication or growth. Blank or dashed fields: not listed here. Rows are shuffled and stem from different studies.

{"structure": "CCOc1ccc2nc(C)cc(Nc3ccc4c(c3)OCCO4)c2c1", "endpoint": "EC50", "cells": "Erythrocytes", "method": "flow cytometry", "strain or isolate": "3D7", "value": "1.99 µM"}
{"structure": "C/C=C1/CC2CCC3=C(Cc4ccccc43)C2C[C@@H]1C1=CN2c3ccccc3C34CCN5C/C(=C/O)[C@H](C[C@H]53)[C@@H]([C@@H]1O)[C@H]24", "endpoint": "EC90", "strain or isolate": "3D7", "value": "15.1 µg/mL"}
{"structure": "COc1cc(OC)c(C=C2SC(=O)N(CC(=O)N3CCN(c4ccccc4)CC3)C2=O)c(OC)c1", "endpoint": "EC50", "changes": "Chloroquine-resistant", "method": "fluorescence", "strain or isolate": "W2", "value": "0.88 µM"}
{"structure": "C=C1CN2CCC34c5ccccc5N5C=C([C@H]6CC7C8=C(CCC7C/C6=C/C)c6ccccc6C8)[C@@H](O)[C@@H]([C@H]53)[C@H]1C[C@H]24", "endpoint": "EC90", "strain or isolate": "W2", "value": "2.624 µg/mL"}
{"structure": "O=C(CN1C(=O)SC(=Cc2ccc(Cl)cc2)C1=O)N1CCN(c2ccccc2)CC1", "endpoint": "EC50", "changes": "Chloroquine-resistant", "method": "fluorescence", "strain or isolate": "W2", "value": ">10 µM"}
{"structure": "C[C@@H]1CC[C@H]2[C@@H](C)C(=O)O[C@@H]3OC4(C)CC[C@@H]1[C@]32OO4", "endpoint": "EC50", "changes": "GNF-Pf4492-resistant PfATP4 A211T", "method": "SYBR Green / fluorescence", "strain or isolate": "GNF-Pf4492R-1", "value": "0.0182 µM"}
{"structure": "CCc1ccc(OCCCCN(C)Cc2ccccc2)cc1", "endpoint": "EC50", "cells": "Erythrocytes", "method": "flow cytometry", "strain or isolate": "K1", "value": "4.74 µM"}
{"structure": "C/C=C1/CN2CCc3c([nH]c4ccccc34)C2C[C@@H]1C1=CN2c3ccccc3C34CCN5CC6=CCO[C@@H]1[C@@H]([C@H]23)[C@H]6C[C@H]54", "endpoint": "EC90", "strain or isolate": "3D7", "value": "1.415 µg/mL"}
{"structure": "CCc1cccc(OCCCCN(C)Cc2ccccc2)c1", "endpoint": "EC50", "cells": "Erythrocytes", "method": "flow cytometry", "strain or isolate": "3D7", "value": ">16.8 µM"}
{"structure": "CC(C)(O)[C@H](O)COc1c2occc2cc2ccc(=O)oc12", "endpoint": "EC90", "cells": "RBC", "strain or isolate": "CQ-sensitive", "value": "29 µg/mL"}
{"structure": "COc1cc(OC)c(C=C2SC(=O)N(CC(=O)N3CCN(C(=O)c4ccccc4)CC3)C2=O)c(OC)c1", "endpoint": "EC50", "changes": "Chloroquine-resistant", "method": "fluorescence", "strain or isolate": "W2", "value": "4.7 µM"}
{"structure": "C=CC1CN2CC[C@H]1CC2C(OC(=O)C1CC1)c1ccnc2ccccc12", "endpoint": "EC50", "cells": "Erythrocytes", "method": "flow cytometry", "strain or isolate": "K1", "value": "0.3178 µM"}
{"structure": "COc1cc(OC)c(C=C2SC(=O)N(CC(=O)N3CCN(c4ccc(Cl)cc4)CC3)C2=O)c(OC)c1", "endpoint": "EC50", "changes": "Chloroquine-resistant", "method": "fluorescence", "strain or isolate": "W2", "value": "1.43 µM"}
{"structure": "O=c1c(O[C@@H]2O[C@H](CO)[C@H](O)[C@H](O)[C@H]2O)c(-c2ccc(O)c(O)c2)oc2cc(O)cc(O)c12", "endpoint": "EC90", "strain or isolate": "Clinical isolates", "value": "113 µM"}
{"structure": "COc1cc(OC)c(C=C2SC(=O)N(Cc3ccccc3)C2=O)c(OC)c1", "endpoint": "EC50", "changes": "Chloroquine-resistant", "method": "fluorescence", "strain or isolate": "W2", "value": ">10 µM"}
{"structure": "O[C@H](c1cc(C(F)(F)F)nc2c(C(F)(F)F)cccc12)[C@@H]1CCCCN1", "endpoint": "EC50", "changes": "GNF-Pf4492-resistant pfatp4 I203L/P990R", "method": "SYBR Green / fluorescence", "strain or isolate": "GNF-Pf4492R-2", "value": "0.0113 µM"}

The last 2 rows once more:

structure	endpoint	cells	changes	method	strain or isolate	value
COc1cc(OC)c(C=C2SC(=O)N(Cc3ccccc3)C2=O)c(OC)c1	EC50		Chloroquine-resistant	fluorescence	W2	>10 µM
O[C@H](c1cc(C(F)(F)F)nc2c(C(F)(F)F)cccc12)[C@@H]1CCCCN1	EC50		GNF-Pf4492-resistant pfatp4 I203L/P990R	SYBR Green / fluorescence	GNF-Pf4492R-2	0.0113 µM